Compound potency records, mixed from different reports. Data source: NIAID ChemDB in PubChem.

Shared fields: growth or infection tests; species: Herpes simplex virus 2; cell line: VERO; read-out: EC50

Two numbers with a dash give a range or band. ECn: concentration that inhibits the pathogen or its effect by n%. Blank or dashed fields: not listed here. Lines come from different laboratories, so protocols vary.

{"smiles": "O=C(OC[C@H]1O[C@@H](OC(=O)c2cc(O)c(O)c(O)c2)[C@H](O)[C@@H](OC(=O)c2cc(O)c(O)c(O)c2)[C@@H]1O)c1cc(O)c(O)c(O)c1", "strain or isolate": "G", "read by": "plaque count", "result": "0.041 µg/mL"}
{"smiles": "O=C(NS(=O)(=O)OCCOCn1ccc(=O)[nH]c1=O)O[C@H]1O[C@H](COCc2ccccc2)[C@@H](OCc2ccccc2)[C@H](OCc2ccccc2)[C@H]1OCc1ccccc1", "strain or isolate": "Lovelace", "read by": "plaque count", "result": "25 µg/mL"}
{"smiles": "Oc1ccc([C@@H]2c3c(O)cc(O)cc3[C@H]3c4c(cc(O)cc4[C@H]2[C@@H]2c4cc(O)cc5c4[C@@H](c4cc(O)cc(O)c4[C@H]2c2ccc(O)cc2)[C@H](c2ccc(O)cc2)O5)O[C@@H]3c2ccc(O)cc2)cc1", "read by": "MTT", "result": "3.7 µM"}
{"smiles": "O=c1[nH]c(=O)n([C@H]2C[C@H](O)[C@@H](COP3(=O)OCc4cccc(-c5ccccc5)c4O3)O2)cc1/C=C/Br", "strain or isolate": "G (TK+)", "read by": "plaque count", "result": ">128 µg/mL"}
{"smiles": "O=C(/C=C/c1ccc(O)c(O)c1)O[C@@H]1CC(O)(C(=O)O)C[C@@H](OC(=O)/C=C/c2ccc(O)c(O)c2)C1O", "strain or isolate": "MS", "read by": "cytopathic effect", "result": ">100 µM"}
{"smiles": "CCCCCCCCCCCCCCCC(=O)OCC(CO)CCn1cnc2c(=O)[nH]c(N)nc21", "strain or isolate": "MS", "read by": "plaque count", "result": "128 µM"}
{"smiles": "CC(C)O[C@@H]1[C@H](OC(C)C)[C@@H](COS(=O)(=O)NC(=O)O[C@H]2C[C@@H](OC(=O)c3ccccc3)[C@H](OC(=O)c3ccccc3)[C@@H](COC(=O)c3ccccc3)O2)O[C@H]1n1ccc(=O)[nH]c1=O", "strain or isolate": "Lovelace", "read by": "plaque count", "result": "50 µg/mL"}
{"smiles": "Nc1ncnc2c1ncn2[C@H]1C[C@H](O)[C@@H](COP(=O)(O)CC(=O)O)O1", "strain or isolate": "3345", "read by": "plaque count", "result": ">2000 µM"}
{"smiles": "CC(C)OC1[C@H](n2ccc(=O)[nH]c2=O)O[C@H](COS(=O)(=O)NC(=O)NC[C@H]2O[C@H](COCc3ccccc3)[C@@H](OCc3ccccc3)[C@H](OCc3ccccc3)[C@H]2OCc2ccccc2)[C@H]1OC(C)C", "strain or isolate": "Lovelace", "read by": "plaque count", "result": "45 µg/mL"}
{"smiles": "Nc1nc2c(ncn2CCC(O)CO)c(=O)[nH]1", "strain or isolate": "91075", "read by": "plaque count", "result": "12 µM"}
{"smiles": "O=C(O)CP(=O)(O)O", "strain or isolate": "3345", "read by": "plaque count", "result": "40 µM"}
{"smiles": "CC(C)=CCC[C@@H](COS(=O)(=O)O)C1CCC2C3CC[C@H]4C[C@H](OS(=O)(=O)O)[C@@H](O)CC4(C)C3CCC21C", "strain or isolate": "G", "read by": "plaque count", "result": "24.3 µg/mL"}
{"smiles": "CCOC(=O)CC1OP(=O)(OC[C@H]2O[C@@H](n3cc(/C=C/Br)c(=O)[nH]c3=O)C[C@@H]2O)Oc2cccc(Cl)c21", "strain or isolate": "G (TK+)", "read by": "plaque count", "result": ">128 µg/mL"}
{"smiles": "CC(C)O[C@@H]1[C@H](OC(C)C)[C@@H](COS(=O)(=O)NC(=O)O[C@H]2O[C@H](COC(=O)c3ccccc3)[C@H](OC(=O)c3ccccc3)[C@H](OC(=O)c3ccccc3)[C@H]2OC(=O)c2ccccc2)O[C@H]1n1ccc(=O)[nH]c1=O", "strain or isolate": "Lovelace", "read by": "plaque count", "result": "35 µg/mL"}
{"smiles": "O=c1[nH]c(=O)n([C@H]2C[C@H](O)[C@@H](COP3(=O)OCc4c(ccc5ccccc45)O3)O2)cc1/C=C/Br", "strain or isolate": "G (TK+)", "read by": "plaque count", "result": ">128 µg/mL"}
{"smiles": "CC(C)CCCC(COS(=O)(=O)O)C1CCC2C3CC=C4C[C@H](O)[C@@H](OS(=O)(=O)O)CC4(C)C3CCC12C", "strain or isolate": "TYPE G", "read by": "plaque count", "result": "18.4 µg/mL"}
{"smiles": "O=c1[nH]c(=O)n([C@@H]2O[C@H](O)[C@@H](O)[C@@H]2O)cc1C#Cc1ccc2c3cccc4cccc(c5cccc1c52)c43", "strain or isolate": "186", "result": "0.031 µM"}
{"smiles": "Nc1nc2c(ncn2C[C@H]2CC[C@@H](P(=O)(O)O)O2)c(=O)[nH]1", "strain or isolate": "186", "read by": "plaque count", "result": ">100 µg/mL"}
{"smiles": "CC1(C)C(OC2O[C@H](C(=O)O)[C@@H](O)[C@H](N[C@@H]3O[C@H](CO)[C@H](O)[C@H](O)[C@H]3O)[C@H]2OC2O[C@H](O)[C@@H](O)[C@H](O)[C@H]2C(=O)O)CC[C@@]2(C)C1CC[C@]1(C)C2C(=O)C=C2C3C[C@@](C)(C(=O)O)CC[C@]3(C)CC[C@]21C", "read by": "cytopathic effect", "result": ">32 µg/mL"}
{"smiles": "Nc1nc2c(ncn2[C@@H]2O[C@H](COP(=O)(O)CC(=O)O)[C@@H](O)[C@H]2O)c(=O)[nH]1", "strain or isolate": "3345", "read by": "plaque count", "result": ">2000 µM"}
{"smiles": "CO[C@H]1C[C@H](n2cc(/C=C/Br)c(=O)[nH]c2=O)O[C@@H]1COP1(=O)OCc2cccc(C)c2O1", "strain or isolate": "G (TK+)", "read by": "plaque count", "result": ">128 µg/mL"}
{"smiles": "CC/C=C\\C/C=C\\C/C=C\\C/C=C\\C/C=C\\CCCC(=O)OC(CO[C@H]1O[C@H](CS(=O)(=O)O)[C@@H](O)[C@H](O)[C@H]1O)OC(=O)CCCCCCCCCCCCCCC", "result": "12 µg/mL"}
{"smiles": "O=c1[nH]c(=O)n([C@H]2C[C@H](O)[C@@H](CO[P@]3(=O)OCc4cccc(-c5ccccc5)c4O3)O2)cc1/C=C/Br", "strain or isolate": "G (TK+)", "read by": "plaque count", "result": ">128 µg/mL"}
{"smiles": "Cn1cc(C(=O)NCc2ccc(Cl)cc2)c(=O)c2cc(CN3CCOCC3)ccc21", "strain or isolate": "186-M1", "read by": "plaque count", "result": ">20 µM"}
{"smiles": "NC1=NC2C(C=CN2CC(CO)CCO)C(=O)N1", "strain or isolate": "G", "read by": "cytopathic effect", "result": "13 µg/mL"}
{"smiles": "Nc1nc(=O)n([C@@H]2O[C@H](CO)[C@@H](O)[C@@H]2F)cc1I", "strain or isolate": "K979", "read by": "cytopathic effect", "result": "<0.1 µg/mL"}
{"smiles": "CCCCCCCCCCCCCC(=O)NC(C)(C)C(=O)N1C[C@@H](O)CC1C(=O)N[C@@H](CC(C)C)C(=O)N[C@H](C(=O)N[C@@H](CCC(N)=O)C(=O)N[C@H](CO)CC(C)C)C(C)C", "read by": "plaque count", "result": "0.28 µM"}
{"smiles": "CC(=O)OC[C@H]1O[C@H](OC(=O)NS(=O)(=O)OC[C@H]2O[C@@H](n3ccc(=O)[nH]c3=O)[C@H](OC(C)C)[C@@H]2OC(C)C)[C@@H](OC(C)=O)[C@@H](OC(C)=O)[C@@H]1OC(C)=O", "strain or isolate": "Lovelace", "read by": "plaque count", "result": ">100 µg/mL"}
{"smiles": "CC(=O)OCC(CO)CCn1cnc2c(=O)[nH]c(N)nc21", "strain or isolate": "MS", "read by": "plaque count", "result": "31 µM"}
{"smiles": "Oc1ccc([C@H]2c3c(O)cc(O)cc3[C@@H]3c4c(cc(O)c5c4[C@H]2[C@@H](c2cc(O)cc(O)c2)[C@@H]5c2ccc4c(c2)[C@@H](c2cc(O)cc(O)c2)[C@H](c2ccc(O)cc2)O4)O[C@H]3c2ccc(O)cc2)cc1", "read by": "MTT", "result": "3.8 µM"}
{"smiles": "O=c1[nH]c(=O)n([C@H]2C[C@H](O)[C@@H](CO)O2)cc1/C=C/Br", "strain or isolate": "K979", "read by": "cytopathic effect", "result": "<30 µg/mL"}
{"smiles": "O=c1ccn([C@@H]2O[C@H](CO)[C@@H](O)[C@@H]2F)c(=O)[nH]1", "strain or isolate": "G-FAU-C2", "read by": "plaque count", "result": ">200 µM"}
{"smiles": "O=c1[nH]c(=O)n([C@H]2C[C@H](O)[C@@H](COP3(=O)OCc4ccc5ccccc5c4O3)O2)cc1/C=C/Br", "strain or isolate": "G (TK+)", "read by": "plaque count", "result": ">128 µg/mL"}
{"smiles": "CC(C)=CCCC(CO)C1CCC2C3CC=C4C[C@H](O)[C@@H](O)CC4(C)C3CCC12C", "strain or isolate": "G", "read by": "plaque count", "result": "17.5 µg/mL"}
{"smiles": "OC1=CC2C3C(=C1)O[C@H](c1ccc(O)cc1)[C@@H]3c1cc(O)cc(O)c1[C@@H]2[C@@H](c1ccc(O)cc1)[C@H](c1ccc(O)cc1)[C@H]1c2c(O)cc(O)cc2[C@H]2C3C(=CC(O)=CC31)O[C@H]2c1ccc(O)cc1", "read by": "MTT", "result": "3.3 µM"}
{"smiles": "O=c1[nH]c(=O)n([C@@H]2O[C@H](CO)[C@@H](O)[C@@H]2F)cc1I", "strain or isolate": "K979", "read by": "cytopathic effect", "result": "<0.1 µg/mL"}
{"smiles": "O=C(O)Cc1ccc(-c2ccccn2)cc1", "strain or isolate": "G", "result": "0.1 µM"}
{"smiles": "Nc1nc2c(ncn2COC(CO)CO)c(=O)[nH]1", "strain or isolate": "G", "read by": "plaque count", "result": "0.9–1.8 µg/mL"}
{"smiles": "O=C1C=C2[C@@H]3C4C(=CC(O)=CC4O[C@H]3c3ccc(O)cc3)C34C(c5ccc(O)cc5)[C@@H]3c3c(O)cc(O)cc3[C@@H]3[C@@H](c5ccc(O)cc5)[C@@H]1C(=O)C234", "read by": "MTT", "result": "4.5 µM"}
{"smiles": "O=c1[nH]c(=O)n([C@@H]2O[C@H](CO)[C@@H](O)[C@@H]2F)cc1I", "strain or isolate": "G-FMAU-C1", "read by": "plaque count", "result": "13 µM"}
{"smiles": "Oc1ccc([C@@H]2c3c(O)cc(O)cc3[C@H]3c4c(cc(O)c5c4[C@@H]2[C@H](c2ccc(O)cc2)[C@H]5c2cc(O)cc(O)c2)O[C@@H]3c2ccc(O)cc2)cc1", "read by": "MTT", "result": "4.5 µM"}
{"smiles": "CC(C)OC1[C@H](n2ccc(=O)[nH]c2=O)O[C@H](COS(=O)(=O)NC(=O)N[C@@H]2O[C@H](COC(=O)c3ccccc3)[C@@H](OC(=O)c3ccccc3)[C@H](OC(=O)c3ccccc3)[C@H]2OC(=O)c2ccccc2)[C@H]1OC(C)C", "strain or isolate": "Lovelace", "read by": "plaque count", "result": "50 µg/mL"}
{"smiles": "C=C(C)C(O)Cc1c(O)c(C(C)=O)c(O)c(C(=O)CC(C)C)c1O", "read by": "cytopathic effect", "result": "3 µM"}
{"smiles": "CC(C)Nc1nc(N)nc2c1ncn2/C=C1/C[C@@H]1CO", "read by": "plaque count", "result": "50 µM"}
{"smiles": "CCc1cn([C@H]2C[C@H](O)[C@@H](CO)O2)c(=O)[nH]c1=O", "strain or isolate": "G-FMAU-C1", "read by": "plaque count", "result": "773 µM"}
{"smiles": "Nc1ncnc2c1ncn2[C@@H]1O[C@H](CO)[C@@H](O)[C@@H]1O", "strain or isolate": "MS-M1", "read by": "plaque count", "result": "18.2 µM"}
{"smiles": "COCc1cn([C@H]2C[C@H](O)[C@@H](CO)O2)c(=O)nc1N", "strain or isolate": "333", "read by": "plaque count", "result": "175 µM"}
{"smiles": "Nc1ncnc2c1ncn2[C@H]1C[C@]12C[C@@H]2CO", "read by": "plaque count", "result": ">50 µM"}
{"smiles": "O=c1cc(-c2ccc(-c3ccccc3)cc2)oc2ccccc12", "strain or isolate": "UW-268", "result": "8.6 µg/mL"}
{"smiles": "COc1ncnc2c1ncn2[C@@H]1O[C@H](CO)[C@@H](O)[C@@H]1O", "read by": "cytopathic effect", "result": ">100 µM"}
{"smiles": "O=C1C2=C(C(=O)c3ccccc31)C1Oc3cc4c(cc3C1CO2)OCCO4", "strain or isolate": "G", "read by": "plaque count", "result": "0.025 µg/mL"}
{"smiles": "Nc1nc2c(ncn2C[C@H]2CC[C@H](P(=O)(O)O)O2)c(=O)[nH]1", "strain or isolate": "186", "read by": "plaque count", "result": "15 µg/mL"}
{"smiles": "Nc1nc(=O)n([C@@H]2O[C@H](CO)[C@@H](O)[C@@H]2F)cc1I", "strain or isolate": "G-FIAU-C1", "read by": "plaque count", "result": "29 µM"}
{"smiles": "Nc1nc2c(ncn2COC(CO)CF)c(=O)[nH]1", "strain or isolate": "G", "read by": "plaque count", "result": ">100 µM"}

5 of the rows above, restated:

smiles,strain or isolate,read by,result
O=C(O)Cc1ccc(-c2ccccn2)cc1,G,,0.1 µM
CO[C@H]1C[C@H](n2cc(/C=C/Br)c(=O)[nH]c2=O)O[C@@H]1COP1(=O)OCc2cccc(C)c2O1,G (TK+),plaque count,>128 µg/mL
Nc1nc2c(ncn2C[C@H]2CC[C@@H](P(=O)(O)O)O2)c(=O)[nH]1,186,plaque count,>100 µg/mL
O=c1[nH]c(=O)n([C@@H]2O[C@H](O)[C@@H](O)[C@@H]2O)cc1C#Cc1ccc2c3cccc4cccc(c5cccc1c52)c43,186,,0.031 µM
COCc1cn([C@H]2C[C@H](O)[C@@H](CO)O2)c(=O)nc1N,333,plaque count,175 µM